Reference: patent publication US12053507B2, “Combination therapies for inhibiting sprout angiogenesis in the treatment of cancers” ([…] OF PHARMACY, LLC, priority 2010, dated 2024)

Target: T1, integrin αvβ3 (human), P06756
T1 chain 1: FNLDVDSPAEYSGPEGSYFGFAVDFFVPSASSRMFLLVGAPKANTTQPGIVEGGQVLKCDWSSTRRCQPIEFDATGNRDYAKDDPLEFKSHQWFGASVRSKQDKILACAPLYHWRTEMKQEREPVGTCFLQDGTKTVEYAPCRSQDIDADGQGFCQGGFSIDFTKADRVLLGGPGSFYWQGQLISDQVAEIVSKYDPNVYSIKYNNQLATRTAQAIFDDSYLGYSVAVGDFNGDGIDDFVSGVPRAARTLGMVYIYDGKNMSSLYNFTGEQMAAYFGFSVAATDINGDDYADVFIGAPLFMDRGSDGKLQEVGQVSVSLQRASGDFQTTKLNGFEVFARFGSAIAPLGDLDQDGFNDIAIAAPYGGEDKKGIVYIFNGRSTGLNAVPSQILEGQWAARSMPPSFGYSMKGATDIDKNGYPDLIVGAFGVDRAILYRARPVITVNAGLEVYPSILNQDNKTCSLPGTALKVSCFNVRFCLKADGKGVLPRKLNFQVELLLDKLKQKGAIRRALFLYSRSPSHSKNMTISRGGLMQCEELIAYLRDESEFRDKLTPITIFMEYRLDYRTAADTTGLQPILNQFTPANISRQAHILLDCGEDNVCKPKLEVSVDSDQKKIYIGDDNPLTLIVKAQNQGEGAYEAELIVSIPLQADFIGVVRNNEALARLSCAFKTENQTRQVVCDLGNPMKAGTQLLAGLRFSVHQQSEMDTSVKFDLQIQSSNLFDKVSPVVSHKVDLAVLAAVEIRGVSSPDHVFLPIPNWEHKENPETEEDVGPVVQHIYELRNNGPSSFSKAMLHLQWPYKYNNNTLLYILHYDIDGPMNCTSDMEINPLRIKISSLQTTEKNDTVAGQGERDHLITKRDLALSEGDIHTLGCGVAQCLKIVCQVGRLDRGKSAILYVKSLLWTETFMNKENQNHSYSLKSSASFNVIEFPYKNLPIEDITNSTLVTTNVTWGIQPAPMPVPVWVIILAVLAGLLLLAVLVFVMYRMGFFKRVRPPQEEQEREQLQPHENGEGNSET
T1 chain 2: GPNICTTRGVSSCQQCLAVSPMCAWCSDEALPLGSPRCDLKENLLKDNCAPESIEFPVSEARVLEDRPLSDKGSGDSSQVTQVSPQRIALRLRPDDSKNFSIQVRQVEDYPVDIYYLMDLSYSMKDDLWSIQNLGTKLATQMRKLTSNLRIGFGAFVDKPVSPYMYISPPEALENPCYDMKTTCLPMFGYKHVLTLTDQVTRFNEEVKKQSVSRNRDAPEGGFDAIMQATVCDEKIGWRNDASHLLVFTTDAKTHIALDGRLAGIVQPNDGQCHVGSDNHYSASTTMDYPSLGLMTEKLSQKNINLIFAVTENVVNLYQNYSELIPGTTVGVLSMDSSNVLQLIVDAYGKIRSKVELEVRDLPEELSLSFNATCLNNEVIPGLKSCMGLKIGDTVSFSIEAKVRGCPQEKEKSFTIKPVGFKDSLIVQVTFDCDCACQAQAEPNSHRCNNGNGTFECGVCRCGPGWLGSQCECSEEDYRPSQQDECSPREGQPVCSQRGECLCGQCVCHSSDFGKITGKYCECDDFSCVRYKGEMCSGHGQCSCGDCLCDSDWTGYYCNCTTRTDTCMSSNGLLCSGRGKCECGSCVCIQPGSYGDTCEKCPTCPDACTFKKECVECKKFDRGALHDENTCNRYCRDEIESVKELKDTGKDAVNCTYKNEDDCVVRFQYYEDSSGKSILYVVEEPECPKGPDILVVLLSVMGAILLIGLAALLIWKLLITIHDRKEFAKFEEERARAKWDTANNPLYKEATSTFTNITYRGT
Experiment: cell-based or functional assay

## QCESGPCCRNCKFLKEGTICKRARGDDMDDYCNGKTCDCPRNPHKGPAT (modifications not checked) [Echistatin (Disintegrin echistatin-alpha or Carinatin)]
  sprout angiogenesis of HDMEC in fibrin: concentration with little effect: 0.1 µg/mL
